Test results: PMC9728156

Tested on: H-NS
Assay: DNase I footprinting
Conditions: 10 mM HEPES, 100 mM KCl, 200 uM EDTA, 10% glycerol, pH 7.5, 30 C 30 min, 200 ng DNA in 50 ul; then 50 ul of 10 mM MgCl2/5 mM CaCl2 and DNase I at room temperature 1 min; recombinant protein; residues 1-135; protein details: C-terminal His; label: 32P (FP-leuO-R end); probe letters rebuilt from the primers and the genome

**Q.** Does “GTCAGGAATAGATAACCTGTATTTCTTATATTTATCGCCCCCATCACTCTCAGGGCTCACTTCACTATCATTGAATTCATTGATGTTTAGCAACTAGATTGATAATTAATCACAATATTTTAGCCAATTATCATTTTTGTTGATTAAAAACATATATTTAAGCAAAACCTAAAAAACTATAAAAAACAGAAATACCCTCATAAGCAGCAATTATTGAGCTAAGTGATGTCTCATCACTTAACCCACTTAAAGCATTTATTACAACTATTGTTTAACCATCAAACCCAACAATCTCGTCAATATTAGCG (double strand) [leuO promoter 308 bp]” bind?
**A.** Result: binds
